Values from PubChem BioAssay AID504761 (Drosophila RNAi Screening Center, 2011).
Aim: 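Genome-wide fly cell screen for genes dengue virus requires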 (primary screen). Cells: D.Mel-2 cells from Drosophila. Reagents: long dsRNA against Drosophila genes. Challenge: infection with dengue virus type 2; dose and infection time not stated. Measurement: 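Cells stained for dengue envelope protein and imaged; percent of infected cells per well on duplicate plates, ranked by infection, with stained nuclei counted for cell number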. Scale: infection score: higher = more virus-infected cells; cell count: higher = more cells in the well. Active means: 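Very low infection ranking in both replicate wells (chance probability at most 0.065), then a retest showing infection dropped 1.5-fold or more at p below 0.05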. Calls: active = confirmed: knock-down lowers infection; inactive = not picked or not confirmed.
In all, the deposit lists about 22,000 reagents; this is a random part of those that have a named target and a result. Of all reagents, 116 (0.52%) were called active. 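Calls depend on retest data that are not deposited; infection was ranked per plate without normalising between plates; the unit of the infection score is not given.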 Raw values vary from plate to plate and are shown uncorrected. Unmarked entries are inactive. Not all columns of the deposit are shown. Not given: the amount of reagent, the time to read-out.

Spx (Spliceosomal protein on the X) [DRSC18720] → infection score, replicate 1 = 11; cell count, replicate 1 = 1354
Spx (Spliceosomal protein on the X) [DRSC23542] → infection score, replicate 1 = 11.8; cell count, replicate 1 = 2280
Pa1 (PTIP associated 1) [DRSC19422] → infection score, replicate 1 = 1.87; cell count, replicate 1 = 6756
Pa1 (PTIP associated 1) [DRSC29046] → infection score, replicate 1 = 21; cell count, replicate 1 = 4925
yellow-f [DRSC15348] → infection score, replicate 1 = 4.87; cell count, replicate 1 = 6056
yellow-f [DRSC27151] → infection score, replicate 1 = 10.2; cell count, replicate 1 = 6641
CG14190 [DRSC19545] → infection score, replicate 1 = 5.15; cell count, replicate 1 = 5707
CG14190 [DRSC27410] → infection score, replicate 1 = 27.3; cell count, replicate 1 = 6071
grim [DRSC23169] → infection score, replicate 1 = 0.38; cell count, replicate 1 = 5306
cnir (cornichon related) [DRSC00499] → infection score, replicate 1 = 6.32; cell count, replicate 1 = 6112
cnir (cornichon related) [DRSC26787] → infection score, replicate 1 = 2.16 (active); cell count, replicate 1 = 6755
CG34155 [DRSC13991] → infection score, replicate 1 = 5.7; cell count, replicate 1 = 6651
CR14033 (pseudo) [DRSC02358] → infection score, replicate 1 = 3.23; cell count, replicate 1 = 5910
CR14033 (pseudo) [DRSC24988] → infection score, replicate 1 = 2.51; cell count, replicate 1 = 5748
betaGlu (beta glucuronidase) [DRSC15419] → infection score, replicate 1 = 1.78; cell count, replicate 1 = 6066
betaGlu (beta glucuronidase) [DRSC24889] → infection score, replicate 1 = 15.9; cell count, replicate 1 = 5041
HtrA2 (HTRA2-related serine protease) [DRSC16425] → infection score, replicate 1 = 10.1; cell count, replicate 1 = 5181
HtrA2 (HTRA2-related serine protease) [DRSC28553] → infection score, replicate 1 = 8.29; cell count, replicate 1 = 2207
E(spl)m3-HLH (Enhancer of split m3, helix-loop-helix) [DRSC23160] → infection score, replicate 1 = 1.26; cell count, replicate 1 = 6978
E(spl)m3-HLH (Enhancer of split m3, helix-loop-helix) [DRSC28511] → infection score, replicate 1 = 21.8; cell count, replicate 1 = 5027
Usp32 (Ubiquitin specific protease 32) [DRSC10979] → infection score, replicate 1 = 2.59; cell count, replicate 1 = 6446

Sorted by “infection score, replicate 1” (descending): some entries from above.
E(spl)m3-HLH (Enhancer of split m3, helix-loop-helix) [DRSC28511] → infection score, replicate 1 = 21.8; cell count, replicate 1 = 5027
Usp32 (Ubiquitin specific protease 32) [DRSC10979] → infection score, replicate 1 = 2.59; cell count, replicate 1 = 6446
